Results as given in patent publication US11141410B2 (MERCK SHARP & DOHME CORP., priority 2015, dated 2021).

The chains behind the UniProt entries cited, without tags or fusion partners. Residues count along the entry.
UniProt Q2G060, 1-351: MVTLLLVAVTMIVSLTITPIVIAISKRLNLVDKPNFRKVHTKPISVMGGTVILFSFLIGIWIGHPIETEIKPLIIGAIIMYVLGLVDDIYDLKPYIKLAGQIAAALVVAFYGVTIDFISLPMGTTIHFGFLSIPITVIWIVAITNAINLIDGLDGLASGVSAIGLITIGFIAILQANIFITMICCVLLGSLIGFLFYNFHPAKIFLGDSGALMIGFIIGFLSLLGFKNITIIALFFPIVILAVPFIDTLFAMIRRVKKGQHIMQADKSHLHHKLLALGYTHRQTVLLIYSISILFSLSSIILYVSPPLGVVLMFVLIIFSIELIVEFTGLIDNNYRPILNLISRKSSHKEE

Assays:
MRSA COL (MB5393) = assay: TarO Inhibitor/β-Lactam Synergy Assay (growth, OD600); type: cell-based, Staphylococcus aureus; conditions: for MITC95 TarO inhibitor alone; Bacteria: SA_MB5393: >200 μM = 95% growth inhibition not achieved, 20 hours at 37° C.; for MITC95 TarO inhibitor + 4 μg/mL IPM; Bacteria: SA_MB5393: in combination with 4 μg/mL imipenem (IPM); for MITC95 TarO inhibitor + 8 μg/mL DCX; Bacteria: SA_MB5393: in combination with 8 μg/mL dicloxacillin (DCX)
TarO = TarO (Staphylococcus aureus, UniProt Q2G060); assay: TarO Biochemical Enzymatic Assay (LC-MS end point, C55-PP-GlcNAc (LIPID III) production); conditions: read-out: TARO inhibitor IC50; TarO membrane preparation derived from MRSA COL

Row | SMILES | MITC95 TarO inhibitor alone; Bacteria: SA_MB5393 (MRSA COL (MB5393)) [µM] | MITC95 TarO inhibitor + 4 μg/mL IPM; Bacteria: SA_MB5393 (MRSA COL (MB5393)) [µM] | MITC95 TarO inhibitor + 8 μg/mL DCX; Bacteria: SA_MB5393 (MRSA COL (MB5393)) [µM] | IC50 (TarO) [nM]
1 | C=CCOc1cc(C(F)(F)F)cc([C@H]2OC(=O)N(C(=O)NCc3cncc4ccccc34)[C@H]2C)n1 | >200 | 0.20 | 0.20 | 60
2 | COc1ccccc1CNC(=O)N1C(=O)O[C@H](c2cc(C(F)(F)F)cc(C(F)(F)F)c2)[C@@H]1CO | >200 | 0.03 | 0.13 | 200
3 | CCOc1cc(C(F)(F)F)cc([C@H]2OC(=O)N(C(=O)NCc3cccc4cncnc34)[C@H]2C)n1 | >200 | 0.19 | 0.72 | 10
